# Share of PSTVd loop 6 variants by leaf site

Data from the supplement of Wu et al. 2024, doi:10.1371/journal.ppat.1012142.

PSTVd intermediate strain, loop 6: wild type UGACCGCGAG, pool pattern UNNNCGNNNG; upper and lower strand joined, each 5' to 3', the first 5 letters being the upper strand, closing pairs included.

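A pool of all variants was put on leaves of three Nicotiana benthamiana plants. Samples came from the inoculated region at 5 days, the leaf margin at 10 and upper systemic leaves at 12.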

Values are reads per thousand in the sample; higher means more abundant, 0 means not found.
Each value is the mean of three plants.
"Pool" is the share in the plasmid pool used as inoculum, on the same scale.
The inoculated region was read from the minus strand, the other sites from the plus strand.
Wild type was 20.7 per thousand in the pool and the most common sequence in every sample (inoculated region 195, 198, 203; leaf margin 629, 591, 734; systemic leaves 942, 870, 868).

| # | sequence | pool | inoculated region | leaf margin | systemic leaves |
|---|---|---|---|---|---|
| 1 | UUCCCGGCCG | 0.222 | 0.113 | 0 | 0 |
| 2 | UCAGCGUCUG | 0.275 | 0.101 | 0 | 0 |
| 3 | UUAGCGCACG | 0.183 | 0.118 | 0 | 0 |
| 4 | UAUACGCCCG | 0.288 | 0.114 | 0 | 0 |
| 5 | UUCACGCCUG | 0.288 | 0.0953 | 0.00773 | 0.00684 |
| 6 | UUGCCGUUAG | 0.392 | 0.160 | 0.00920 | 0 |
| 7 | UAUUCGCAUG | 0.209 | 0.0899 | 0 | 0 |
| 8 | UACCCGUAUG | 0.275 | 0.0956 | 0.127 | 0 |
| 9 | UUGGCGUGCG | 0.340 | 0.0661 | 0 | 0 |
| 10 | UUUACGGUAG | 0.340 | 0.114 | 0.00920 | 0.0329 |
| 11 | UUCACGGUGG | 0.327 | 0.0831 | 0 | 0 |
| 12 | UUAUCGCUAG | 0.144 | 0.119 | 0.00773 | 0 |
| 13 | UUCCCGUCCG | 0.196 | 0.0710 | 0.00920 | 0 |
| 14 | UUGUCGUGCG | 0.105 | 0.0534 | 0.00773 | 0 |
| 15 | UUCCCGUUAG | 0.301 | 0.0954 | 0 | 0 |
| 16 | UCACCGCCUG | 0.157 | 0.119 | 0.0401 | 0 |
| 17 | UUGUAGGGCG | 0.0131 | 0 | 0 | 0 |
| 18 | UGCACGCCUG | 0.248 | 0.130 | 0.00841 | 0 |
| 19 | UAUACGGUCG | 0.340 | 0.149 | 0.00773 | 0 |
| 20 | UACGCGAGAG | 0.170 | 0.0897 | 0.00773 | 0 |
| 21 | UUAACGGGGG | 0.118 | 0.645 | 0.104 | 0 |
| 22 | UUUACGUCAG | 0.288 | 0.0710 | 0.00920 | 0 |
| 23 | UCAUCGCUCG | 0.288 | 0.0717 | 0.00920 | 0 |
| 24 | UACCCGAUUG | 0.327 | 0.0837 | 0 | 0 |
| 25 | UCGACGCAGG | 0.235 | 0.0652 | 0.00920 | 0 |
| 26 | UAUACGUUUG | 0.431 | 0.100 | 0 | 0 |
| 27 | UGUCCGCAAG | 0.157 | 0.685 | 0.0884 | 0.0127 |
| 28 | UUAUCGACAG | 0.366 | 0.0769 | 0.00920 | 0 |
| 29 | UUUGCGCCUG | 0.222 | 0.114 | 0.00920 | 0.00684 |
| 30 | UAUUCGUCAG | 0.261 | 0.0831 | 0.00773 | 0 |
| 31 | UAUCCGGGAG | 0.157 | 0.115 | 0.0169 | 0 |
| 32 | UCCACGAGAG | 0.157 | 0.0940 | 0.00773 | 0.00684 |
| 33 | UCAUCGAAAG | 0.157 | 0.0840 | 0.00920 | 0 |
| 34 | UAGCCGCAGG | 0.131 | 0.131 | 0.0353 | 0 |
| 35 | UCAUCGGCCG | 0.209 | 0.0771 | 0.0247 | 0 |
| 36 | UUGCCGGCUG | 0.340 | 0.0764 | 0 | 0 |
| 37 | UUUUCGCUCG | 0.183 | 0.119 | 0.00920 | 0 |
| 38 | UGAACGCUGG | 0.131 | 0.138 | 0.0169 | 0 |
| 39 | UGCCCGUGCG | 0.183 | 0.0954 | 0.00773 | 0 |
| 40 | CCUCGGCAUG | 0.0131 | 0 | 0 | 0 |
| 41 | UAAUCGACCG | 0.209 | 0.0775 | 0.00920 | 0 |
| 42 | UACUCGCCGG | 0.131 | 0.107 | 0.00773 | 0 |
| 43 | UUAUCGUUCG | 0.288 | 0.0884 | 0.0184 | 0 |
| 44 | UGUACGGUAG | 0.222 | 0.0890 | 0.00773 | 0 |
| 45 | UCUCCGCAUG | 0.105 | 0.162 | 0.00773 | 0 |
| 46 | UCCACGUGCG | 0.170 | 0.0704 | 0.0261 | 0 |
| 47 | UACCCGUUUG | 0.366 | 0.0536 | 0 | 0 |
| 48 | UAGGCGAGGG | 0.170 | 0.0828 | 0 | 0 |
| 49 | UCGGCGUAUG | 0.353 | 0.0656 | 0.101 | 0 |
| 50 | UUUCCGGAAG | 0.209 | 0.0725 | 0.0155 | 0 |
| 51 | UAUGCGGACG | 0.261 | 0.101 | 0 | 0 |
| 52 | UAUCCGGAUG | 0.248 | 0.0889 | 0 | 0 |
| 53 | GGGCCGCGCG | 0.0131 | 0 | 0 | 0 |
| 54 | UUCCCGACCG | 0.144 | 0.0601 | 0 | 0 |

Samples held 36,220 to 57,551 reads, so the smallest values rest on one or two reads.
The authors trace changes outside the varied positions to PCR and sequencing errors or to mutation in the plant; presence does not show that a variant is infectious alone.